Anti-infective test results gathered from many reports (values: NIAID ChemDB through PubChem).

Shared fields: tests on isolated targets

Conditions beyond the fields shown may differ between rows. An empty or dashed field is not shown. Inhibition is in % at the dose shown (toxicity tests: loss of growth or viability). ICn is the concentration giving n% inhibition. Two numbers with a dash give a range or band.

| SMILES | tested at | read by | strain | protein | organism | read-out | result |
|---|---|---|---|---|---|---|---|
| c1ccc(Oc2cccc(-c3cnc4c(-c5nn[nH]n5)cnn4c3C3CCCCC3)c2)cc1 |  |  |  | RNA-dependent RNA polymerase | Hepatitis C virus | IC50 | 1–10 µM |
| O=C(O)CCC(=O)N[C@H](C(=O)N[C@@H](CCC(=O)O)C(=O)N[C@H](C(=O)N[C@@H](CS)C(=O)O)c1ccc(-c2ccccc2)cc1)C(c1ccccc1)c1ccccc1 | 16.7 µM |  |  | Nonstructural protein 3 NTPase/helicase | Hepatitis C virus | inhibition | 13% |
| Cc1cc2c(cc1F)c(C#N)c(-c1ccc(S(=O)(=O)N[C@@H](C)C(F)(F)F)cn1)n2-c1ncccn1 |  | PCR | 1b | Nonstructural protein 4B | Hepatitis C virus | IC50 | >1 µM |
| CCC(C)[C@H](NC(=O)[C@@H](NC(=O)CCC(=O)O)C1CCCCC1)C(=O)N[C@@H](CCC(=O)O)C(=O)NC1(C(=O)O)CC1 | 83.5 µM |  |  | Nonstructural protein 3 NTPase/helicase | Hepatitis C virus | inhibition | 14% |
| O=C(O)[C@H](Cc1ccccc1)N(Cc1cccc(Br)c1)C(=O)Cc1ccc(Cl)cc1Cl |  |  |  | RNA-dependent RNA polymerase | Hepatitis C virus | IC50 | 5–20 µM |
| c1csc(COc2ccc(-c3cnc4c(-c5nn[nH]n5)cnn4c3C3CCCCC3)cc2)c1 |  |  |  | RNA-dependent RNA polymerase | Hepatitis C virus | IC50 | <1 µM |
| Cc1c(OCc2ccccc2)ccc(-c2ccc3cc(-c4nc5cc(C(=O)O)ccc5n4C4CCCCC4)ccc3n2)c1O | 100 µM |  |  | NS5B polymerase | Hepatitis C virus | inhibition | 101% |
| CCCC(NC(=O)[C@@H]1C[C@@H](OCc2ccccc2)CN1C(=O)[C@@H](NC(=O)[C@@H](NC(=O)[C@@H](CCC(=O)O)NC(=O)[C@H](CC(=O)O)NC(C)=O)[C@@H](C)CC)C(C)C)C(=O)N1Cc2ccccc2C[C@H]1C(=O)O |  |  |  | NS3 protease/NS4A cofactor | Hepatitis C virus | IC50 | 8 µM |
| COc1cc(C)c(S(=O)(=O)N(Cc2cccc(-c3cc4ccccc4o3)c2)[C@H](Cc2ccccc2)C(=O)O)c(C)c1C |  |  |  | RNA-dependent RNA polymerase | Hepatitis C virus | IC50 | <5 µM |
| CC(C)C[C@H](NC(=O)[C@H](CCC(=O)O)NC(=O)[C@@H](NC(=O)CCC(=O)O)C1CCCCC1)C(=O)NC1(C(=O)O)CC1 |  |  |  | Nonstructural protein 3 NTPase/helicase | Hepatitis C virus | IC50 | >83.5 µM |
| Cc1cc(-c2nc3cc(C(=O)O)ccc3n2C2CCCCC2)cc2ccc(-c3ccccc3-c3ccc(Cl)cc3)nc12 | 100 µM |  |  | NS5B polymerase | Hepatitis C virus | inhibition | 97.98% |
| COc1c(C2CCCCC2)c(-c2ccc(OCc3ccccc3)cc2)nc2c(C(=O)O)cnn12 |  |  |  | RNA-dependent RNA polymerase | Hepatitis C virus | IC50 | >10 µM |
| Nc1nc(=O)c2ncn(CCOCP(=O)(O)O)c2c(=O)[nH]1 |  | helicase activity |  | Nonstructural protein 3 NTPase/helicase | Hepatitis C virus | IC50 | 200 µM |
| O=C(O)CCC(=O)N[C@@H](CCC(=O)O)C(=O)N[C@@H](CCC(=O)O)C(=O)NC1(C(=O)O)CC1 | 83.5 µM |  |  | Nonstructural protein 3 NTPase/helicase | Hepatitis C virus | inhibition | 11% |
| CCOC(=O)c1cccc(-c2ccc(CN(C(=O)c3ccc(Cl)cc3Cl)C(Cc3ccccc3)C(=O)O)s2)c1 |  |  |  | RNA-dependent RNA polymerase | Hepatitis C virus | IC50 | <5 µM |
| CC(C)[C@H](NC(=O)[C@@H](NC(=O)CCC(=O)O)C1CCCCC1)C(=O)N[C@@H](CCC(=O)O)C(=O)NC1(C(=O)O)CC1 | 167 µM |  |  | Nonstructural protein 3 NTPase/helicase | Hepatitis C virus | inhibition | 30% |
| O=c1c(O)c(-c2ccc(O)c(O)c2)oc2cc(O)c(O)c(O)c12 |  | nucleotide incorporation | Genotype 1A | RdRp | Hepatitis C virus | IC50 | 6.3 µM |
| Cc1nc(C)c(-c2ccc3cc(-c4nc5cc(C(=O)O)ccc5n4C4CCCCC4)ccc3n2)s1 | 33 µM |  |  | NS5B polymerase | Hepatitis C virus | inhibition | 96.59% |
| CC[C@H](C)[C@H](NC(=O)[C@H](CC(C)C)NC(=O)CCCC(=O)O)C(=O)N[C@@H](CC1CCCCC1)C(=O)NC1(C(=O)O)CC1 |  |  |  | Nonstructural protein 3 NTPase/helicase | Hepatitis C virus | IC50 | >83.5 µM |
| O=c1oc2c(O)c(O)cc3c(=O)oc4c(O)c(O)cc1c4c23 |  | fluorescence |  | Nonstructural protein 3/4A | Hepatitis C virus | IC90 | <10 µM |
| O=C(O)CCC(=O)N[C@H](C(=O)N[C@@H](CCC(=O)O)C(=O)N[C@@H](CCC(=O)O)C(=O)NC1(C(=O)O)CC1)C1CCCCC1 |  |  |  | Nonstructural protein 3 NTPase/helicase | Hepatitis C virus | IC50 | >83.5 µM |
| COc1ccc(-c2csc(CN(C(=O)c3ccc(Cl)cc3Cl)C(Cc3ccccc3)C(=O)O)c2)cc1 |  |  |  | RNA-dependent RNA polymerase | Hepatitis C virus | IC50 | <5 µM |
| O=C(Nc1nn[nH]n1)c1cc2nc(-c3ccc(OCc4ccccc4)cc3)c(C3CCCCC3)c(=O)n2[nH]1 |  |  |  | RNA-dependent RNA polymerase | Hepatitis C virus | IC50 | 1–10 µM |
| CC1(C)C(CC(=O)O)CC1c1ccc2cc(-c3nc4cc(C(=O)O)ccc4n3C3CCCCC3)ccc2n1 | 100 µM |  |  | NS5B polymerase | Hepatitis C virus | inhibition | 100% |
| O=C1c2ccccc2C(=O)c2cc(CN(c3ccc(Cl)cc3Cl)[C@@H](Cc3ccccc3)C(=O)O)ccc21 |  |  |  | RNA-dependent RNA polymerase | Hepatitis C virus | IC50 | <5 µM |
| Cn1c(Cc2nc3ccc(C(N)=O)cc3[nH]2)nc2ccc(C(=O)Nc3ccc(C(=O)NC(CCC(=O)O)C(=O)O)cc3)cc21 |  |  |  | NS3 serine protease | Hepatitis C virus | IC50 | 13 µM |
| CCCN(NC(=O)[C@H]1C[C@@H](OCc2ccccc2)CN1C(=O)[C@@H](NC(=O)[C@@H](OC(=O)[C@@H](CC(=O)O)NC(=O)[C@H](CC(=O)O)NC(C)=O)[C@H](C)CC)C(C)C)C(=O)NCc1ccc2c(c1)OCO2 |  |  |  | Serine protease | Hepatitis C virus | IC50 | 0.5 µM |
| Cc1cc(-c2ccccc2-c2ccc(Cl)cc2)nc2ccc(-c3nc4cc(C(=O)O)ccc4n3C3CCCCC3)cc12 | 100 µM |  |  | NS5B polymerase | Hepatitis C virus | inhibition | 99.54% |
| CC(=O)N1CCN(c2c(-c3ccc(OCc4ccccc4)cc3)cnc3c(-c4nn[nH]n4)cnn23)CC1 |  |  |  | RNA-dependent RNA polymerase | Hepatitis C virus | IC50 | >10 µM |
| O=C(O)CCCC(=O)N[C@H](C(=O)N[C@@H](CCC(=O)O)C(=O)N[C@@H](CCC(=O)O)C(=O)NC1(C(=O)O)CC1)C(c1ccccc1)c1ccccc1 | 167 µM |  |  | Nonstructural protein 3 NTPase/helicase | Hepatitis C virus | inhibition | 24% |
| CC(C)[C@H](NC(=O)c1ccc2cc(-c3nc4cc(C(=O)O)ccc4n3C3CCCCC3)ccc2n1)C(N)=O | 33 µM |  |  | NS5B polymerase | Hepatitis C virus | inhibition | 78.44% |
| Cc1nc2cc(NC(=O)c3ccc(S(=O)(=O)N(C)Cc4ccccc4)cc3)ccc2s1 |  | ELISA |  | HBeAg production | Hepatitis B virus | IC50 | 0.35 µM |
| O=C(O)C(Cc1ccccc1)N(Cc1ccc(-c2cccs2)s1)C(=O)c1ccc(Cl)cc1Cl |  |  |  | RNA-dependent RNA polymerase | Hepatitis C virus | IC50 | <5 µM |
| N#Cc1ccc(-c2ccc(-c3nc4cc(C(=O)O)[nH]n4c(=O)c3C3CCCCC3)cc2)cc1 |  |  |  | RNA-dependent RNA polymerase | Hepatitis C virus | IC50 | 1–10 µM |
| Cc1nc(-c2ccc(Cl)cc2)sc1-c1ccc2cc(-c3nc4cc(C(=O)O)ccc4n3C3CCCCC3)ccc2n1 | 33 µM |  |  | NS5B polymerase | Hepatitis C virus | inhibition | 100.7% |
| O=C(O)[C@H](Cc1ccccc1)N(Cc1ccc(-c2ccc(Cl)c(F)c2)o1)C(=O)c1ccc(Cl)cc1Cl |  |  |  | RNA-dependent RNA polymerase | Hepatitis C virus | IC50 | <5 µM |
| Clc1ccc(Oc2cccc(-c3cnc4c(-c5nn[nH]n5)cnn4c3C3CCCCC3)c2)cc1Cl |  |  |  | RNA-dependent RNA polymerase | Hepatitis C virus | IC50 | 1–10 µM |
| CCOC(=O)c1cnc2c(c1)nc(-c1ccc3nc(-c4cc(O)ccc4-c4ccc(Cl)cc4)ccc3c1)n2C1CCCCC1 | 33 µM |  |  | NS5B polymerase | Hepatitis C virus | inhibition | 56.6% |

Again, the opening 3 rows:

| SMILES | tested at | read by | strain | protein | organism | read-out | result |
|---|---|---|---|---|---|---|---|
| c1ccc(Oc2cccc(-c3cnc4c(-c5nn[nH]n5)cnn4c3C3CCCCC3)c2)cc1 |  |  |  | RNA-dependent RNA polymerase | Hepatitis C virus | IC50 | 1–10 µM |
| O=C(O)CCC(=O)N[C@H](C(=O)N[C@@H](CCC(=O)O)C(=O)N[C@H](C(=O)N[C@@H](CS)C(=O)O)c1ccc(-c2ccccc2)cc1)C(c1ccccc1)c1ccccc1 | 16.7 µM |  |  | Nonstructural protein 3 NTPase/helicase | Hepatitis C virus | inhibition | 13% |
| Cc1cc2c(cc1F)c(C#N)c(-c1ccc(S(=O)(=O)N[C@@H](C)C(F)(F)F)cn1)n2-c1ncccn1 |  | PCR | 1b | Nonstructural protein 4B | Hepatitis C virus | IC50 | >1 µM |